The source of these data is ChEMBL document CHEMBL3612042 (J Med Chem, 2015).

By ΔTm is commonly meant the shift of the melting midpoint relative to a reference.

This assay deals with T1, Biotin--[acetyl-CoA-carboxylase] ligase (Mycobacterium tuberculosis (strain ATCC 25618 / H37Rv)) (UniProt I6YFP0).
T1 sequence (whole entry): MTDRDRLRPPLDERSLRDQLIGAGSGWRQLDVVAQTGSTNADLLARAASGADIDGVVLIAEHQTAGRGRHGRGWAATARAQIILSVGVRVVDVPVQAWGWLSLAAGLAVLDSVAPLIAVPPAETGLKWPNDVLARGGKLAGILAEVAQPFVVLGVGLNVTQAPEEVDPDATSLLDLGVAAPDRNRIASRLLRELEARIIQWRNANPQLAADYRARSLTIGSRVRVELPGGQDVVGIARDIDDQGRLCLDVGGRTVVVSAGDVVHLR
With `Nc1ncnc2c1ncn2[C@@H]1O[C@H](CNS(=O)(=O)NC(=O)CCCC[C@@H]2SC[C@@H]3NC(=O)N[C@@H]32)C[C@H]1O`, the ΔTm worked out at 15 °C. Next, `[N-]=[N+]=N[C@@H]1[C@H](O)[C@@H](CNS(=O)(=O)NC(=O)CCCC[C@@H]2SC[C@@H]3NC(=O)N[C@@H]32)O[C@H]1n1cnc2c(N)ncnc21`: 13 °C. The figure for `Nc1ncnc2c1ncn2[C@@H]1C[C@H](CNS(=O)(=O)NC(=O)CCCC[C@@H]2SC[C@@H]3NC(=O)N[C@@H]32)[C@@H](O)[C@H]1O` is 12.2 °C. As to `Nc1ncnc2c1ncn2[C@H]1C=C[C@@H](CNS(=O)(=O)NC(=O)CCCC[C@@H]2SC[C@@H]3NC(=O)N[C@@H]32)C1`, the ΔTm was determined as 12.5 °C. The figure for `C[C@@]1(O)[C@H](O)[C@@H](COS(=O)(=O)NC(=O)CCCC[C@@H]2SC[C@@H]3NC(=O)N[C@@H]32)O[C@H]1n1cnc2c(N)ncnc21` is 14.2 °C.

Take `[N-]=[N+]=N[C@H]1[C@H](O)[C@@H](CNS(=O)(=O)NC(=O)CCCC[C@@H]2SC[C@@H]3NC(=O)N[C@@H]32)O[C@H]1n1cnc2c(N)ncnc21`: the shift in melting temperature (ΔTm) came out at 17 °C. The figure for `CCN(CC)CC.Nc1ncnc2c1ncn2[C@@H]1O[C@H](COS(=O)(=O)NC(=O)CCCC[C@@H]2SC[C@@H]3NC(=O)N[C@@H]32)[C@@H](O)[C@@H]1F` is 17.7 °C; for `Nc1ncnc2c1ncn2[C@@H]1O[C@H](CNS(=O)(=O)NC(=O)CCCC[C@@H]2SC[C@@H]3NC(=O)N[C@@H]32)[C@@H](O)[C@H]1N` it is 19.2 °C.
